Record: PubChem BioAssay AID504761 (Drosophila RNAi Screening Center, 2011)
Screen: 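Fly genes whose silencing reduces dengue virus type 2 infection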 (primary screen). Cells: D.Mel-2 cells from Drosophila. Reagent: long dsRNA against Drosophila genes. Treatment: infection with dengue virus type 2; dose and infection time not stated. Read-out: 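Per well on two replicate plates, imaging gave the percent of cells positive for viral envelope protein, ranked by infection, and a nuclear count of cells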. Reading the numbers: infection score: higher = more virus-infected cells. Hit rule: 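Very low infection ranking in both replicate wells (chance probability at most 0.065), then a retest showing infection dropped 1.5-fold or more at p below 0.05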. Calls: active = confirmed: knock-down lowers infection; inactive = not picked or not confirmed.
The screen tested about 22,000 reagents; this is a random part of those that have a named target and a result. In the full data, 116 (0.52%) were called active. 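Calls depend on retest data that are not deposited; infection was ranked per plate without normalising between plates; the unit of the infection score is not given.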 Names joined by + are all predicted targets of the reagent. Further read-outs or replicates are left out here. The record does not give: the amount of reagent, the time to read-out.

predicted target | DRSC id | infection score, replicate 1 | activity call
l(1)G0020 (GeneID 31811) | DRSC18198 | 11.8 | inactive
CG6638 (GeneID 38979) | DRSC10680 | 1.62 | inactive
CG6638 (GeneID 38979) | DRSC24246 | 10.1 | inactive
CG17930 (GeneID 41979) | DRSC15292 | 8.95 | inactive
CG17930 (GeneID 41979) | DRSC28230 | 16.6 | inactive
DCTN4-p62 (GeneID 35709) | DRSC06101 | 29.4 | inactive
DCTN4-p62 (GeneID 35709) | DRSC27900 | 7.7 | inactive
CG15646 (GeneID 32501) | DRSC19682 | 11.3 | inactive
COX6AL2 + Ir75d | DRSC10081 | 6.57 | inactive
CG3916 (GeneID 41484) | DRSC15520 | 16.2 | inactive
CG3916 (GeneID 41484) | DRSC26907 | 9.26 | inactive
CG12782 (GeneID 37685) | DRSC04127 | 11.2 | inactive
CG13299 (GeneID 38724) | DRSC09973 | 7.21 | inactive
lncRNA:noe (GeneID 43918) | DRSC22747 | 3.94 | inactive
lncRNA:noe (GeneID 43918) | DRSC24139 | 1.39 | inactive
Khc (GeneID 36810) | DRSC07448 | 16 | inactive
Khc (GeneID 36810) | DRSC24335 | 6.5 | inactive
CG7653 (GeneID 34935) | DRSC01886 | 3.93 | inactive
CG14301 (GeneID 42235) | DRSC14780 | 26.4 | inactive
Toll-9 (GeneID 40245) | DRSC11776 | 8.79 | inactive
Ir67a (GeneID 39110) | DRSC09897 | 2.73 | inactive
CG15025 (GeneID 42328) | DRSC15031 | 1.88 | inactive
lms (GeneID 37322) | DRSC06387 | 2.06 | inactive
lms (GeneID 37322) | DRSC27541 | 2.51 | inactive

Records listed so far whose gene name starts with L or l (5):
predicted target | DRSC id | infection score, replicate 1 | activity call
l(1)G0020 (GeneID 31811) | DRSC18198 | 11.8 | inactive
lncRNA:noe (GeneID 43918) | DRSC22747 | 3.94 | inactive
lncRNA:noe (GeneID 43918) | DRSC24139 | 1.39 | inactive
lms (GeneID 37322) | DRSC06387 | 2.06 | inactive
lms (GeneID 37322) | DRSC27541 | 2.51 | inactive
